B1: IgG BU.7 (antibody, V domains shown)
VH: LEWGPGLVKPSETLSLTCTVSGGSISSINYYWVWIRQPPGKGLEWIGNINYSGTTNYNPSLKSRVTISVDTSKNQFSLKLSSVTAADTAVYYCARQTYYYDRRGYYRPEPIEHWGQGTLVTVSS
VL: ELVMTQSPSFLSASVGDRVTITCRASQDVRSFLHWYQQRPGKAPKLLIYAASMVSSEVPSRFSGSGSETDFTLTIDGLQPEDVATYFCQQTYDTPLTFGGGTAVDIK
B2: IgG BU.54 (antibody, V domains shown)
VH: LEWGPGLVKASQTLSLTCTVSGGSISSRNFYWSWIRQPGGKGLEWIGRIYTSGSTNYNPSLKSRVTISLDTSKSQFSLKLSSVTAADTAVYYCARGTFYYDRSGNGRLDPLDYWGQGTLVTVS
VL: ELVMTQSPSSLSASVGDRVTITCQASQDISNYLNWYQQKPGKAPKLLIYDASNLETGVPSRFSGSGFGTHFTLTISSLQPEDFATYYCQQHDNLVTFGGGTKVEIK

Biological target: S protein of SARS-CoV-2 Omicron on pseudotyped particles (SARS-CoV-2, UniProt P0DTC2 14-1273)
Assay: cell-based or functional assay

Binder | neutralizing activity expressed as IC50 µg/ml (pseudovirus, luciferase) [µg/mL]
B1 | 1.8
B2 | 0.5

From US20260234220A1 (OSPEDALE SAN RAFFAELE S R L, published 2026)
